Test results reported in patent publication US7105522B2, “HIV inhibiting pyrazinone derivatives” (Janssen Pharmaceutica, N.V., priority 2001, dated 2006).

Each compound was assayed on HIV-1. Conditions: MT-4 cells.
Type: cell-based
Procedure: A rapid, sensitive and automated assay procedure was used for the in vitro evaluation of anti-HIV agents. An […] T4-cell line, MT-4, which was previously shown (Koyanagi et al., Int. J. Cancer, 36, 445–451, 1985) to be highly susceptible to and permissive for HIV infection, served as the target cell line. Inhibition of the HIV-induced cytopathic effect was used as the end point. The viability of both HIV- and mock-infected cells was assessed spectrophotometrically via the in situ reduction of 3-(4,5-dimethylthiazol-2-yl)-2,5-diphenyltetrazolium bromide (MTT). The 50% cytotoxic concentration (CC50 in μM) was defined as the concentration of compound that reduced the absorbance of the mock-infected control sample by 50%. The percent protection achieved by the compound in HIV-infected cells was calculated by the following formula:
[formula] whereby (ODT)HIV is the optical density measured with a given concentration of the test compound in HIV-infected cells; (ODC)HIV is the optical density measured for the control untreated HIV-infected cells; (ODC)MOCK is the optical density measured for the control untreated mock-infected cells; all optical density values were determined at 540 nm. The dose achieving 50% protection according to the above formula was defined as the 50% inhibitory concentration (IC50 in μM). The ratio of CC50 to IC50 was defined as the selectivity index (SI).

| Structure (SMILES) | SI (selectivity index, ratio of CC50 to IC50) |
| --- | --- |
| Cc1ccccc1Oc1cn(C)c(=O)c(Nc2ccc(C#N)cc2)n1 [Compound 2, 4-[[3,4-dihydro-4-methyl-6-(2-methylphenoxy)-3-oxopyrazinyl]amino]-benzonitrile] | 25119 |
| Cc1ccc(Oc2cn(C)c(=O)c(Nc3ccc(C#N)cc3)n2)c(C)c1 [Compound 3, 4-[[6-(2,4-dimethylphenoxy)-3,4-dihydro-4-methyl-3-oxopyrazinyl]amino]-benzonitrile] | 158489 |
| Cc1cc(C)c(Sc2cn(C)c(=O)c(Nc3ccc(C#N)cc3)n2)c(C)c1 [Compound 13, 4-[[3,4-dihydro-4-methyl-3-oxo-6-[(2,4,6-trimethylphenyl)thio]pyrazinyl]amino]-benzonitrile] | 6310 |
| Cc1cc(C)c(S(=O)(=O)c2cn(C)c(=O)c(Nc3ccc(C#N)cc3)n2)c(C)c1 [Compound 15, 4-[[3,4-dihydro-4-methyl-3-oxo-6-[(2,4,6-trimethylphenyl)sulfonyl]pyrazinyl]amino]-benzonitrile] | 12589 |
| Cc1ccc(Sc2cn(C)c(=O)c(Nc3ccc(C#N)cc3)n2)c(C)c1 [Compound 21, 4-[[6-[(2,4-dimethylphenyl)thio]-3,4-dihydro-4-methyl-3-oxopyrazinyl]amino]-benzonitrile] | 19953 |
